From patent publication US20120258127A1 (priority 2010, published 2012) come the findings set out here.

The assay has as its system PBMC from vaccinated and challenged pigs. In words: Specificity of IFN-γ responses: PBMC stimulation with viruses, recombinant proteins, peptide pools and peptides. Format: cell-based. The note with it: titrations of individual peptides against PBMC from an individual animal.

With NKYFEPRDSYFQQYML, the “Recognition of individual antigenic peptides (IFN-γ)” value is recorded as “recognition”.
